Compound potency records, mixed from different reports. Data source: NIAID ChemDB in PubChem.

All rows: tests in culture; agent: HIV-1

Lines come from different laboratories, so protocols vary. An empty or dashed field is not shown. ECn: concentration that inhibits the pathogen or its effect by n%.

smiles,measure,strain or isolate,method,cell line,changes,value
Cc1cn([C@H]2C[C@H](N=[N+]=[N-])[C@@H](CO)O2)c(=O)[nH]c1=O,EC50,IIIB,p24 / ELISA,MT-2,R41K,0.153 µM
CN=C1N(C)C(=O)OC12[C@@H](CO[Si](C)(C)C(C)(C)C)O[C@@H](n1cc(C)c(=O)n(C)c1=O)[C@@H]2O[Si](C)(C)C(C)(C)C,EC50,IIIB,syncytia,CEM,,≥35 µM
CC(=O)OC[C@H]1O[C@@H](SCCOP(=O)(OCCS[C@@H]2O[C@H](CO)[C@@H](O)[C@H](O)[C@H]2O)OC[C@H]2O[C@@H](n3cc(C)c(=O)[nH]c3=O)C[C@@H]2N=[N+]=[N-])[C@H](OC(C)=O)[C@@H](OC(C)=O)[C@@H]1OC(C)=O,EC50,IIIB,cytopathic effect / MTT,MT-4,,0.06 µM
COC(=O)N[C@H](C(=O)N[C@@H](Cc1ccccc1)[C@@H](O)CN(Cc1ccc(-c2ccccn2)cc1)NC(=O)[C@@H](NC(=O)OC)C(C)(C)C)C(C)(C)C,EC50,IIIB,p24 / ELISA,MT-2,M200I,0.0008 µM
O=C(NCc1ccc(F)cc1)c1nc(N2CCCCS2(=O)=O)c2cccnc2c1O,EC50,IIIB,p24,MT-4,,<0.1 µM
COc1cc(C(=O)N2CCN(C(=O)c3cc(OC)c(OC)c(OC)c3)C(COC(=O)NCC(C)(C)C)C2)cc(OC)c1OC,EC50,BaL,RT activity,Macrophage + Monocytes/macrophages,,<100 µM
O=C(NC(=O)c1cn(CCN2CCNCC2)c(=O)[nH]c1=O)OCc1ccccc1,EC50,RF,cytopathic effect / XTT,CEM + CEM-SS,,>40 µM
N#CCN1C(=O)N(Cc2ccccc2)S(=O)(=O)c2cscc21,EC50,IIIB,syncytia,CEM,RT-K103N,>300 µM
O=c1[nH]cc(N=Nc2ccc(S(=O)(=O)Nc3ccccn3)cc2)cc1O,EC50,RF,cytopathic effect / XTT,CEM + CEM-SS,,>86 µM
Cc1cn([C@H]2C[C@H](N=[N+]=[N-])[C@@H](CO)O2)c(N)nc1=O,EC50,,p24,CEM-F + CEM,,12 µM
CC(C)(C)NC(=O)[C@@H]1C[C@@H]2CCCC[C@@H]2CN1C[C@@H](O)[C@H](Cc1ccccc1)NC(=O)[C@H](CC(N)=O)NC(=O)c1ccc2ccccc2n1,EC50,HXB2,p24,PBMC,PR-G48V L90M,0.12 µM
Cc1cn([C@@H]2O[C@H](CO[Si](C)(C)C(C)(C)C)C3(OS(=O)(=O)C=C3N)[C@H]2O[Si](C)(C)C(C)(C)C)c(=O)n(C)c1=O,EC50,NNRTI-resistant,cytopathic effect,CEM,RT-L100I,0.18 µM
Cc1cn([C@H]2C[C@H](N=[N+]=[N-])[C@@H](CO)O2)c(=O)[nH]c1=O,EC50,IIIB,cytopathic effect / MTT,MT-4,,>0.0007 µM
COc1c2ccoc2cc2oc(=O)ccc12,EC50,IIIB,p24,H9,,0.354 µg/mL
Nc1ncnc2c1ncn2CCOCP(=O)(O)O,EC50,IIIB,cytopathic effect,MT-4,,0.6 µg/mL
CN(CCc1c[nH]c2ccccc12)[C@@H]1CC2=CC(=O)O[C@@]23C[C@@H]1N1CCC[C@@H]13,EC50,NL4-3,MTT / absorbance,MT-4,,42.6 µM
COc1ccc(-n2cnc(C)n2)c2[nH]cc(C(=O)C(=O)N3CCN(C4=Nc5ccccc5Oc5ccc(Cl)cc54)CC3)c12,EC50,LAI,luciferase / reporter gene / single cycle,MT-2,,0.00183 µM
Cc1cn([C@@H]2O[C@H](CO[Si](C)(C)C(C)(C)C)C3(OC(=O)N(C)C3=N)[C@H]2O[Si](C)(C)C(C)(C)C)c(=O)n(C)c1=O,EC50,IIIB,syncytia,CEM,,>35 µM
Nc1ncc2ncn(CCOCP(=O)(O)O)c2n1,EC50,IIIB,cytopathic effect,MT-4,,14 µg/mL
Cc1cn([C@H]2C[C@H](N=[N+]=[N-])[C@@H](CO)O2)c(=O)[nH]c1=O,EC50,IIIB,syncytia,CEM,,0.003 µM
Cc1cn([C@H]2CC[C@@H](CO)O2)c(=O)[nH]c1=O,EC50,,p24,CEM-F + CEM,,0.38 µM
COc1cc(C(=O)N2CCN(C(=O)c3cc(OC)c(OC)c(OC)c3)C(COC(=O)C(C)(C)C)C2)cc(OC)c1OC,EC50,BaL,RT activity,Macrophage + Monocytes/macrophages,,>100 µM
Cc1cn([C@H]2C[C@H](N=[N+]=[N-])[C@@H](CO)O2)c(=O)[nH]c1=O,EC50,,cytopathic effect,MT-4,,0.001 µg/mL
COc1ccc(-n2cncn2)c2[nH]cc(C(=O)C(=O)N3CCN(C4=Nc5ccccc5Oc5ccc(Cl)cc54)CC3)c12,EC50,LAI,luciferase / reporter gene / single cycle,MT-2,,<0.5 µM
Cc1cn([C@H]2C=C[C@@H](CO)O2)c(=O)[nH]c1=O,EC90,IIIB,cytopathic effect,ATH8,,<0.25 µg/mL
CN1C(=O)N(Cc2ccccc2)S(=O)(=O)c2cscc21,EC50,IIIB,syncytia,CEM,RT-Y188H,≥324 µM
COc1ccc(-n2cnc(C)n2)c2[nH]cc(C(=O)C(=O)N3CCN(C4=Nc5cc(Cl)ccc5Nc5ccccc54)CC3)c12,EC50,LAI,luciferase / reporter gene / single cycle,MT-2,,<0.5 µM
O=C1C=C2CC(OC3C[C@@]45OC(=O)C=C4C[C@@H]3N3CCCC[C@H]35)[C@@H]3C[C@@]2(O1)[C@H]1CCCN31,EC50,NL4-3,MTT,MT-4,,120 µM
CC(=O)OC[C@H]1O[C@@H](SCCOP(=O)(OCS[C@@H]2O[C@H](COC(C)=O)[C@@H](OC(C)=O)[C@H](OC(C)=O)[C@H]2OC(C)=O)OC[C@H]2O[C@@H](n3cc(C)c(=O)[nH]c3=O)C[C@@H]2N=[N+]=[N-])[C@H](OC(C)=O)[C@@H](OC(C)=O)[C@@H]1OC(C)=O,EC50,LAI,RT activity,MM + M/M,,0.2 µM
CC1(C)S[C@H]([C@H](NC(=O)Cc2ccccc2)C(=O)NCc2ccccc2)N[C@H]1C(=O)NCCNC(=O)[C@@H]1N[C@@H]([C@H](NC(=O)Cc2ccccc2)C(=O)NCc2ccccc2)SC1(C)C,EC50,RF,cytopathic effect,MT-4,,0.29 µM
O=C1Nc2c(csc2[N+](=O)[O-])S(=O)(=O)N1Cc1ccccc1,EC50,IIIB,syncytia,CEM,,>2.3 µM
CC(=O)c1s/c(=N\S(=O)(=O)c2cccc([N+](=O)[O-])c2)n(C)c1C,EC50,IIIB,cytopathic effect / MTT,MT-4,,>25 µM
Fc1cccc(F)c1C1OCc2nc3ccccc3n21,EC50,IIIB,cytopathic effect / MTT,CEM,,3.81 µM
CC(C)Nc1cccnc1N1CCN(C(=O)c2cc3cc(NS(C)(=O)=O)ccc3[nH]2)CC1,EC50,NNRTI-resistant,cytopathic effect,CEM,RT-V106A,0.1 µM
Fc1cccc(F)c1C1SCc2nc3ccccc3n21,EC50,TSAO-resistant (RT E138K),cytopathic effect / MTT,CEM,RT-E138K,1.73 µM
Cc1cn([C@H]2C[C@H](N=[N+]=[N-])[C@@H](CO)O2)c(=O)[nH]c1=O,EC50,,p24,CEM-F + CEM,,0.1 µM
Nc1nccc2c1ncn2[C@@H]1C[C@H](CO)[C@@H](O)[C@H]1O,EC50,A012 POST-AZT,,PBMC,,0.365 µM
CCn1c(C)c(C(C)(C)C)s/c1=N\S(=O)(=O)c1cccc([N+](=O)[O-])c1,EC50,IIIB,cytopathic effect / MTT,MT-4,,>11.5 µM
COc1ccc(NC(=O)C/C(C)=N/N=C(N)N)c([N+](=O)[O-])c1,EC50,RF,cytopathic effect / XTT,CEM + CEM-SS,,>100 µM
CO[C@H]1[C@H]([C@H]2CC3=CC(=O)O[C@@]34C[C@@H]2N2CCC[C@@H]24)C2=CC(=O)O[C@@]23C[C@@H]1N1CCC[C@@H]13,EC50,NL4-3,MTT / absorbance,MT-4,,122 µM
CCCc1cc(=O)oc2c3c(c4c(c12)OC(C)(C)C=C4)O[C@H](C)[C@H](C)[C@@H]3O,EC50,RF,XTT,CEM + CEM-SS,,>10 µM
CCc1s/c(=N\S(=O)(=O)c2cccc([N+](=O)[O-])c2)n(C)c1C,EC50,IIIB,cytopathic effect / MTT,MT-4,,0.23 µM
Nc1nc(N)c2ncn([C@H]3CO[C@@H](CO)O3)c2n1,EC50,,,MT-2,RT-M41L K70R T215Y K219Q,6.4 µM
C[C@]12CCCN1[C@H]1C[C@@]23OC(=O)C=C3C[C@@H]1C1=C2C[C@H]3[C@H](O)C[C@]2(OC1=O)[C@H]1CCCN31,EC50,NL4-3,MTT / absorbance,MT-4,,79.6 µM
Nc1nc2c(ncn2[C@@H]2OC[C@@](/C=C/P(=O)(O)O)(CO)[C@@H]2F)c(=O)[nH]1,EC50,LAI,MTT,PBMC,,73 µM
O=C1C=C2C=C[C@@H]3C[C@@]2(O1)[C@H]1CCCCN31,EC50,NL4-3,MTT / absorbance,MT-4,,19.3 µM
Nc1ncnc2c1ncn2[C@@H]1OC[C@](CO)(CCP(=O)(O)O)[C@@H]1F,EC50,LAI,MTT,PBMC,,19.2 µM
Cc1c(C(C)c2c(F)cccc2F)nc(SC2CCCC2)[nH]c1=O,EC50,NL4-3,cytopathic effect / MTT,MT-4,,0.0011 µM
Cc1c(C(C)(C)C)s/c(=N\S(=O)(=O)c2cccc([N+](=O)[O-])c2)n1C,EC50,IIIB,cytopathic effect / MTT,MT-4,,0.085 µM
Cc1ccnc2c1NC(=O)c1cccnc1N2C1CC1,EC50,,,MT-4,RT-M41L T215Y A98G,<3 µM
CC(=O)C(N=Nc1ccc(S(=O)(=O)Nc2ccccn2)cc1)C(=O)Nc1ccccc1C,EC50,RF,cytopathic effect / XTT,CEM + CEM-SS,,>4.5 µM
COc1ccc(CN2C(=O)Nc3cscc3S2(=O)=O)c(OC)c1,EC50,IIIB,cytopathic effect / MTT,MT-4,,>705.4 µM
CC1(C)S[C@@H]2[C@H](NC(=O)Cc3ccccc3)C(=O)N2[C@H]1C(=O)NCCNC(=O)[C@@H]1N2C(=O)[C@@H](NC(=O)Cc3ccccc3)[C@H]2SC1(C)C,EC50,RF,cytopathic effect,MT-4,,>100 µM
O=C1Nc2cscc2S(=O)(=O)N1c1ccccc1Br,EC50,IIIB,syncytia,CEM,,>55.7 µM
COC(=O)[C@H](C)NP(=O)(OC[C@@H]1C=C[C@H](n2cc(C)c(=O)[nH]c2=O)O1)Oc1ccc(Br)cc1,EC50,IIIB,p24,PBMC,,<0.0097 µM
Cc1cn([C@H]2C[C@H](N=[N+]=[N-])[C@@H](CO)O2)c(=O)[nH]c1=O,EC50,112-2,MTT / p24,MT-2,,0.036 µg/mL
CC1(C)Oc2ccc3ccc(=O)oc3c2[C@@H](OC(=O)C23CCC(C)(C(=O)O2)C3(C)C)[C@H]1OC(=O)C12CCC(C)(C(=O)O1)C2(C)C,EC50,,,H9,,0.049 µM
Nc1ncnc2c1ncn2CCOCP(=O)(O)O,EC50,LAI,,,,3.8 µM
Cc1cn([C@H]2C[C@H](N=[N+]=[N-])[C@@H](COP(=O)(OCCS[C@@H]3O[C@H](CO)[C@@H](O)[C@H](O)[C@H]3O)OCCS[C@@H]3O[C@H](CO)[C@@H](O)[C@H](O)[C@H]3O)O2)c(=O)[nH]c1=O,EC50,IIIB,cytopathic effect / MTT,MT-4,,0.04 µM
Cc1ccnc2c1NC(=O)c1cccnc1N2C1CC1,EC50,IIIB,syncytia,CEM,RT-Y181C,864 µM
Cc1cc(C#N)cc(C)c1Oc1nc(Nc2ccc(C#N)cc2)nc(N)c1Br,EC50,MJ4 C (N348I),luciferase,HEK293T,,0.00205 µM
O=S(=O)(O)c1cc(O)c(N=NC2S(=O)(=O)OCCOS2(=O)=O)c2ccccc12,EC50,RF,cytopathic effect / XTT,CEM + CEM-SS,,>78 µM
CCN1C(=O)N(Cc2ccccc2)S(=O)(=O)c2cscc21,EC50,IIIB,syncytia,CEM,RT-L100I,10.2 µM

Again, the opening 4 rows:

smiles,measure,strain or isolate,method,cell line,changes,value
Cc1cn([C@H]2C[C@H](N=[N+]=[N-])[C@@H](CO)O2)c(=O)[nH]c1=O,EC50,IIIB,p24 / ELISA,MT-2,R41K,0.153 µM
CN=C1N(C)C(=O)OC12[C@@H](CO[Si](C)(C)C(C)(C)C)O[C@@H](n1cc(C)c(=O)n(C)c1=O)[C@@H]2O[Si](C)(C)C(C)(C)C,EC50,IIIB,syncytia,CEM,,≥35 µM
CC(=O)OC[C@H]1O[C@@H](SCCOP(=O)(OCCS[C@@H]2O[C@H](CO)[C@@H](O)[C@H](O)[C@H]2O)OC[C@H]2O[C@@H](n3cc(C)c(=O)[nH]c3=O)C[C@@H]2N=[N+]=[N-])[C@H](OC(C)=O)[C@@H](OC(C)=O)[C@@H]1OC(C)=O,EC50,IIIB,cytopathic effect / MTT,MT-4,,0.06 µM
COC(=O)N[C@H](C(=O)N[C@@H](Cc1ccccc1)[C@@H](O)CN(Cc1ccc(-c2ccccn2)cc1)NC(=O)[C@@H](NC(=O)OC)C(C)(C)C)C(C)(C)C,EC50,IIIB,p24 / ELISA,MT-2,M200I,0.0008 µM